Results as given in ChEMBL document CHEMBL1687783, “Prevalence and dissemination of oqxAB in Escherichia coli isolates from animals, farmworkers, and the environment” (2010).

Assays:
Escherichia coli [1] = conditions: C600 W281-T
Escherichia coli [2] = conditions: C600 G262-T
Escherichia coli [3] = conditions: C600 G062-T
Escherichia coli [4] = conditions: C600 X1B1-T
Escherichia coli [5] = conditions: C600 XT11-T

Measured: MIC

GENTAMICIN
0.5 µg/mL: all assays above
